Laboratory results as given in the CheMixHub viscosity set.
± gives the uncertainty stated by the source.

Assay: xn = mol fraction of the nth substance listed
Details: 101.33 kPa, x1 = 0.1918

`OCCOCCOCCOCCO` + O gave a viscosity (303.15 K) of 13.82 ± 0.14 mPa·s and a viscosity (308.15 K) of 11.04 ± 0.12 mPa·s.
